Results of unrelated studies side by side (data: NIAID ChemDB).

All rows: target-level tests

Neighbouring rows are from separate reports. ICn: concentration for n% inhibition. Fold resistance: result on the changed form divided by that on wild type. Blank or dashed fields: not listed here. a–b is a range or a potency band. Inhibition is in % at the dose shown (toxicity tests: loss of growth or viability).

SMILES | tested at | protein | agent | strain or isolate | read-out | changes | method | result
Nc1cnccn1 | 2000 µM | Uracil phosphoribosyltransferase | Toxoplasma gondii | RH | inhibition | - | - | <5%
Cc1cc(SC2=C(O)C[C@@](CCc3ccc(O)cc3)(C(C)C)OC2=O)c(C(C)(C)C)cc1CO | 10 µM | Cytochrome P450 3A4 | - | - | inhibition | - | - | 14%
O=C(CN1C(=O)SC(=Cc2cccc(OC(F)(F)F)c2)C1=O)N1CCN(c2ccccc2)CC1 | - | Falcipain-2 | Plasmodium falciparum | - | IC50 | - | fluorescence | 44.97 µM
C[C@H](c1ccccc1)N(C(=O)c1ccc(Cl)cc1Cl)c1cc(-c2ccccc2)sc1C(=O)O | - | NS3 ATPase | Hepatitis C virus | - | IC50 | - | - | <5 µM
O=C(c1ccccc1)N1C[C@H](CN2CCC(c3ccccc3)CC2)[C@@H](c2ccccc2)C1 | - | CCR5 | - | - | fold resistance | CCR5-D276A | radiometric | 1.6
CC[C@H]1C(=O)Nc2ccc(F)cc2N1C(=O)OC(C)C | - | Reverse transcriptase | HIV | - | IC50 | RT-N137D | nucleotide incorporation / radiometric | 0.011 µM
O=C(CN1C(=O)SC(=Cc2ccc(Cl)cc2)C1=O)N1CCN(c2ccccc2)CC1 | - | Falcipain-2 | Plasmodium falciparum | - | IC50 | - | fluorescence | >50 µM
O=C/C=C/c1ccccc1 | - | Chitin synthase 2 | Saccharomyces cerevisiae | - | Ki | - | - | 1610 µM
COc1ccccc1C(=O)Nc1nnc(NCc2ccc(Cl)c(Cl)c2)s1 | - | Polymerase | Human cytomegalovirus | - | IC50 | - | - | >25 µM
CC(C)(C)c1cc(NS(=O)(=O)c2ccc(Cl)cc2)c(C(=O)O)s1 | - | NS3 ATPase | Hepatitis C virus | - | IC50 | - | - | <5 µM
O=c1cn[nH]c(=S)[nH]1 | - | Uracil phosphoribosyltransferase | Toxoplasma gondii | RH | IC50 | - | - | >2000 µM
CC(CNC(=O)OC(C)(C)C)N(C(=O)c1ccc(Cl)cc1Cl)c1cc(-c2ccccc2)sc1C(=O)O | - | NS3 ATPase | Hepatitis C virus | - | IC50 | - | - | <5 µM
S=c1[nH]ncc2[nH]cnc12 | - | Phosphoribosyltransferase | Toxoplasma gondii | RH | Ki | - | - | 14 µM
CC(C)=CCOc1cc(NC(=S)c2ccoc2C)ccc1Cl | - | Reverse transcriptase | HIV | - | fold resistance | RT-N137A | nucleotide incorporation / radiometric | 0.27
O=C(O)C(Cl)(Cl)P(=O)(O)O | - | DNA polymerase | Herpes simplex virus 2 | - | IC50 | - | - | >100 µM
Nc1ncnc2nc[nH]c12 | 900 µM | Phosphoribosyltransferase | Toxoplasma gondii | RH | inhibition | - | - | <10%
O=C(CN1C(=O)SC(=Cc2ccc(Cl)cc2Cl)C1=O)N1CCN(c2ccccc2)CC1 | - | Falcipain-2 | Plasmodium falciparum | - | IC50 | - | fluorescence | >50 µM
CC(Cl)(C(=O)O)P(=O)(O)O | 100 µM | DNA polymerase | Herpes simplex virus 2 | - | inhibition | - | - | 0%
O=c1cc(O)cc[nH]1 | 2000 µM | Uracil phosphoribosyltransferase | Toxoplasma gondii | RH | inhibition | - | - | <5%
Cc1c(Sc2ccccc2)n(COCCO)c(=O)[nH]c1=O | - | Reverse transcriptase | HIV | - | fold resistance | RT-Y181I Y188L | - | >10
O=C(O)c1c[nH]c(=O)[nH]c1=O | - | Uracil phosphoribosyltransferase | Toxoplasma gondii | RH | IC50 | - | - | >2000 µM
O=c1[nH]ncc2n[nH]nc12 | - | Phosphoribosyltransferase | Toxoplasma gondii | RH | IC50 | - | - | >900 µM
O=C(O)C(F)(F)P(=O)(O)O | - | DNA polymerase | Herpes simplex virus 1 | - | IC50 | - | - | 18 µM
Cc1ccccc1C(=O)Nc1cc(-c2ccccc2)sc1C(=O)O | - | NS3 ATPase | Hepatitis C virus | - | IC50 | - | - | 5–20 µM
O=c1[nH]c(=O)c2n[nH]nc2[nH]1 | - | Phosphoribosyltransferase | Toxoplasma gondii | RH | IC50 | - | - | >900 µM
Cc1cccc(-c2cc(N(C(=O)c3ccc(C)cc3O)C(C)C)c(C(=O)O)s2)c1 | - | NS3 ATPase | Hepatitis C virus | - | IC50 | - | - | <5 µM
Nc1cc(=O)[nH]c(=S)[nH]1 | - | Uracil phosphoribosyltransferase | Toxoplasma gondii | RH | IC50 | - | - | >2000 µM
CN(CC(C)(CCN1CCC(N(CCO)C(=O)OCc2ccc([N+](=O)[O-])cc2)CC1)c1ccsc1)S(=O)(=O)c1ccccc1 | - | CCR5 | - | - | fold resistance | CCR5-Y37A | radiometric | 1.65
CCSCCNc1nnc(NC(=O)c2ccc(C(F)(F)F)cc2)s1 | - | Polymerase | Human cytomegalovirus | - | IC50 | - | - | >25 µM
O=C(O)C(Cl)(Br)P(=O)(O)O | - | DNA polymerase | Epstein-Barr virus | - | IC50 | - | - | >100 µM
CCCc1c[nH]c(=O)[nH]c1=O | 2000 µM | Uracil phosphoribosyltransferase | Toxoplasma gondii | RH | inhibition | - | - | <5%
Cc1cc(N(C(=O)c2ccc(Cl)cc2Cl)C(C)C)c(C(=O)O)s1 | - | NS3 ATPase | Hepatitis C virus | - | IC50 | - | - | <5 µM
CC(Br)(C(=O)O)P(=O)(O)O | 100 µM | DNA polymerase | Epstein-Barr virus | - | inhibition | - | - | 50%
CCOC(=O)c1c[nH]c(=O)[nH]c1=O | 2000 µM | Uracil phosphoribosyltransferase | Toxoplasma gondii | RH | inhibition | - | - | <5%
Cc1cn([C@@H]2O[C@H](CO[Si](C)(C)C(C)(C)C)[C@@]3(OS(=O)(=O)C=C3N)[C@H]2O[Si](C)(C)C(C)(C)C)c(=O)[nH]c1=O | - | Reverse transcriptase | HIV | - | fold resistance | RT-N137T | nucleotide incorporation / radiometric | 0.44
O=C(O)C(F)(Cl)P(=O)(O)O | - | DNA polymerase | Epstein-Barr virus | - | IC50 | - | - | >100 µM
COc1cc(OC)c(C=C2SC(=O)N(CC(=O)N3CCNCC3)C2=O)c(OC)c1 | - | Falcipain-2 | Plasmodium falciparum | - | IC50 | - | fluorescence | >50 µM
O=P(O)(O)C(Cl)(Cl)P(=O)(O)O | - | DNA polymerase | Herpes simplex virus 2 | - | IC50 | - | - | >100 µM
Nc1ncnc2[nH]ncc12 | - | Phosphoribosyltransferase | Toxoplasma gondii | RH | IC50 | - | - | >900 µM
O=C(CN1C(=O)SC(=Cc2ccccc2)C1=O)N1CCN(c2ccccc2)CC1 | - | Falcipain-2 | Plasmodium falciparum | - | IC50 | - | fluorescence | 38.8 µM
O=C(Nc1nnc(NCCc2c[nH]c3ccccc23)s1)c1ccc2c(c1)C(=O)OC2=O | - | Polymerase | Human cytomegalovirus | - | IC50 | - | - | <25 µM
O=P(O)(O)C(Cl)(Br)P(=O)(O)O | - | DNA polymerase | Herpes simplex virus 2 | - | IC50 | - | - | >100 µM
Cn1c(=O)[nH]c(=O)c2[nH]cnc21 | 900 µM | Phosphoribosyltransferase | Toxoplasma gondii | RH | inhibition | - | - | <10%
O=C(Nc1nnc(NCCCNC2CCCCC2)s1)c1ccc([N+](=O)[O-])o1 | - | Polymerase | Human cytomegalovirus | - | IC50 | - | - | <25 µM
CC(C)C(=O)N1C[C@H](CN2CCC(c3ccccc3)CC2)[C@@H](c2ccccc2)C1 | - | CCR5 | - | - | fold resistance | CCR5-Y37A | radiometric | 1.5

A second listing of 5 rows from above:

SMILES,tested at,protein,agent,strain or isolate,read-out,changes,method,result
Cn1c(=O)[nH]c(=O)c2[nH]cnc21,900 µM,Phosphoribosyltransferase,Toxoplasma gondii,RH,inhibition,-,-,<10%
O=P(O)(O)C(Cl)(Cl)P(=O)(O)O,-,DNA polymerase,Herpes simplex virus 2,-,IC50,-,-,>100 µM
CC(CNC(=O)OC(C)(C)C)N(C(=O)c1ccc(Cl)cc1Cl)c1cc(-c2ccccc2)sc1C(=O)O,-,NS3 ATPase,Hepatitis C virus,-,IC50,-,-,<5 µM
O=C(O)C(F)(Cl)P(=O)(O)O,-,DNA polymerase,Epstein-Barr virus,-,IC50,-,-,>100 µM
O=C/C=C/c1ccccc1,-,Chitin synthase 2,Saccharomyces cerevisiae,-,Ki,-,-,1610 µM